A mixed list of measured activities; the numbers were collected in NIAID ChemDB.

Common to all: host cell toxicity; endpoint: CC50

CCn is the concentration with n% toxicity to the cells. Lines come from different laboratories, so protocols vary. An empty or dashed field is not shown.

structure	cell line	method	result
Cc1cccc2c1OP(=O)(OC[C@H]1O[C@@H](n3cc(/C=C/Br)c(=O)[nH]c3=O)C[C@@H]1OC(=O)[C@@H](N)C(C)C)OC2	HELF		70.4 µg/mL
O=Nc1c(-c2c(O)[nH]c3ccccc23)[nH]c2ccccc12	PM1	MTT	>4 µM
Fc1ccc(-c2nc(SCCCCBr)n[nH]2)cc1	THP-1	MTT	>100 µg/mL
CCN1c2ncc(COc3ccccc3)cc2C(=O)N(C)c2ccc(Cl)nc21	C8166-45	MTT	>60 µM
CC1(C)[C@@H]2CC[C@@]1(C)[C@@H](NC(=O)/C=C/C=C/c1ccc3c(c1)OCO3)C2	HEK293T	MTT	146.5 µM
CN[C@H]1C[C@@]23CC[C@@]4(O2)C(=CC[C@]2(C)C(c5ccc6ccncc6c5)=CC[C@H]24)C=C3[C@@H](O)[C@@H]1O	HUVEC	ATP	<0.1 µM
CCC[C@@H]1C[C@@H](C(=O)N[C@@H]([C@H]2O[C@H](SC)[C@H](O)[C@@H](O)[C@H]2O)[C@@H](C)O)N(C)C1	HeLa		>100 µg/mL
S=c1nc(-c2ccco2)[nH][nH]1	Panc-1	MTT	>100 µg/mL
CN(C)[C@H]1C[C@@]23CC[C@@]4(O2)C(=CC[C@]2(C)C(c5ccc6nc(N)ncc6c5)=CC[C@H]24)C=C3[C@@H](O)[C@@H]1O	HUVEC	ATP	<0.1 µM
O=C(/C=C/C=C/c1ccc2c(c1)OCO2)NC12CC3CC(CC(C3)C1)C2	HEK293T	MTT	209.3 µM
CN(C)[C@H]1C[C@@]23CC[C@@]4(O2)C(=CC[C@]2(C)C(C#Cc5cccnc5)=CC[C@H]24)C=C3[C@@H](O)[C@@H]1O	HUVEC	ATP	>1 µM
Cc1cn([C@H]2C=C[C@@H](CO)O2)c(=O)[nH]c1=O	HB611	trypan blue	>200 µg/mL
CC1=C(/C=C/C(C)=C/C=C/C(C)=C/CO)C(C)(C)CCC1	HeLa		100 µg/mL
C[C@H](Cn1cnc2c(N)ncnc21)OCP(=O)(O)O	P3HR-1		>100 µg/mL
CC(=O)OC(C1CC(C)C(=O)O1)C(C)C1C2C3(O)OC4(CCC12C)C(=CCC1C(C)(C)OC2CC(=O)OC21C4O)C3=O	MDA-MB-231	MTT	7.3 µg/mL
C[C@@H](N)C(=O)O[C@H]1C[C@H](n2cc(/C=C/Br)c(=O)[nH]c2=O)O[C@@H]1COP1(=O)OCc2ccccc2O1	HELF		>128 µg/mL
Nc1nc(N)c2ncn(CCOCP(=O)(O)O)c2n1	HB611	trypan blue	35 µg/mL
O=P(O)(O)COCCn1cnc2c(N3CCCCC3)ncnc21	P3HR-1		>100 µg/mL
CC1(C)[C@@H]2CC[C@@]1(C)[C@H](O)[C@@H]2NC(=O)/C=C/C=C/c1ccc2c(c1)OCO2	HEK293T	MTT	33.1 µM
Cc1cccc2c1OP(=O)(OC[C@H]1O[C@@H](n3cc(/C=C/Br)c(=O)[nH]c3=O)C[C@@H]1OC(=O)[C@H](N)Cc1ccccc1)OC2	HELF		119 µg/mL
CC(=O)[C@]1(O)Cc2c(O)c3c(c(O)c2[C@@H](O[C@H]2C[C@H](N)[C@H](O)[C@H](C)O2)C1)C(=O)c1c(O)cccc1C3=O	HeLa		<1 µg/mL
CCN1c2ncc(CCc3ccccc3)cc2C(=O)N(C)c2ccc(Cl)nc21	C8166-45	MTT	>60 µM
CC(C)NS(=O)(=O)c1nc(-c2ccc(Cl)cc2)n[nH]1	Panc-1	MTT	>100 µg/mL
CN(C)[C@H]1C[C@@]23CC[C@@]4(O2)C(=CC[C@]2(C)C(c5ccc6cnccc6c5)=CC[C@H]24)C=C3[C@@H](O)[C@@H]1O	HUVEC	ATP	>1 µM
CN[C@@H]1[C@@H](O[C@H]2O[C@H](CO)[C@@H](N)[C@H](O)[C@H]2O)O[C@H]2C[C@@H](N)C(O[C@H]3[C@H](O)[C@@H](O)[C@H](N)C[C@@H]3N)O[C@@H]2[C@@H]1O	HeLa		>200 µg/mL
Nc1ncnc2c1ncn2C[C@@H](CF)OCP(=O)(O)O	P3HR-1		160 µg/mL
Cc1cccc2c1OP(=O)(OC[C@H]1O[C@@H](n3cc(/C=C/Br)c(=O)[nH]c3=O)C[C@@H]1OC(=O)[C@@H](C)N)OC2	HELF		>128 µg/mL
CCCCSc1n[nH]c(-c2ccc(O)cc2)n1	Panc-1	MTT	>100 µg/mL
CO[C@H]1[C@@H](O)[C@H](O)[C@H](OC[C@@]23C[C@@H]4[C@H](C)CC[C@H]4[C@@]4(C=O)C[C@@H]2C=C(C(C)C)[C@@]34C(=O)O)O[C@@H]1C	HeLa		200 µg/mL
CCN(C)CCNc1ncnc2c1ncn2C[C@H](C)OCP(=O)(O)O	P3HR-1		5.6 µg/mL
O=[N+]([O-])c1ccc(-c2nc(SCC3CC3)n[nH]2)cc1	THP-1	MTT	>100 µg/mL
Nc1ncnc2c1ncn2CCOCP(=O)(O)O	HB611	trypan blue	29 µg/mL
CC(=O)CCC(=O)O[C@H]1C[C@H](n2cc(/C=C/Br)c(=O)[nH]c2=O)O[C@@H]1COP1(=O)OCc2ccccc2O1	HELF		>128 µg/mL
Cc1cn([C@H]2C[C@H](N=[N+]=[N-])[C@@H](CO)O2)c(=O)[nH]c1=O	P3HR-1		53 µg/mL
CC(=O)NC1[C@H](COC[C@@H]2C(CO)O[C@@H](COC[C@@H]3C(CO)O[C@@H](O)C(NC(C)=O)[C@@H]3O)C(NC(C)=O)[C@@H]2O)OC(CO)[C@@H](O)[C@H]1O	HeLa		>200 µg/mL
CCN1c2ncc(CCOc3cc[n+]([O-])cc3)cc2C(=O)N(C)c2ccc(Cl)nc21	C8166-45	MTT	>256 µM

The first 3 rows once more:

structure | cell line | method | result
Cc1cccc2c1OP(=O)(OC[C@H]1O[C@@H](n3cc(/C=C/Br)c(=O)[nH]c3=O)C[C@@H]1OC(=O)[C@@H](N)C(C)C)OC2 | HELF |  | 70.4 µg/mL
O=Nc1c(-c2c(O)[nH]c3ccccc23)[nH]c2ccccc12 | PM1 | MTT | >4 µM
Fc1ccc(-c2nc(SCCCCBr)n[nH]2)cc1 | THP-1 | MTT | >100 µg/mL